Anti-infective test results gathered from many reports (values: NIAID ChemDB through PubChem).

Shared fields: growth or infection tests

A number after MIC or MFC names an inhibition level or a share of isolates.

compound | method | species | dose | conditions | measure | strain | result
CC(CC(=O)O)Nc1ccccc1Oc1nc2ccccc2nc1Cl | - | Candida tenuis | - | - | MIC | VKM Y-70 | 125 µg/mL
CCCCCCCCCCCCCCCC(=O)NC(CCCCN)C(=O)NC(CCCCN)C(N)=O | broth dilution | Candida guilliermondii | - | - | MIC | 4888 | 8 µg/mL
Clc1ccc(COC(Cn2ccnc2)c2ccc(Cl)cc2Cl)c(Cl)c1 | broth dilution | Candida glabrata | - | pH 6 | EC90 | 40 isolates | 1 µg/mL
Cc1nc2c(s1)C(=O)C(Nc1cccc(F)c1)=C(Cl)C2=O | broth dilution | Candida utilis | - | - | MIC | KCCM 50662 | 6.3 µg/mL
CCC(C)CC(C)CCCCCCCCC(=O)N[C@H]1C[C@@H](O)[C@H](NCCN)NC(=O)[C@@H]2[C@@H](O)CCN2C(=O)[C@H]([C@H](O)CCN)NC(=O)[C@H]([C@H](O)[C@@H](O)c2ccc(O)cc2)NC(=O)[C@@H]2C[C@@H](O)CN2C(=O)[C@H]([C@@H](C)O)NC1=O | broth dilution | Candida glabrata | - | pH 6 | EC90 | 40 isolates | 0.5 µg/mL
O/N=C\c1ccccc1 | - | Candida famata | - | - | MIC100 | - | 8260 µM
CCCCN(Cc1cn(Cc2cccc(Cl)c2)nn1)CC(O)(Cn1cncn1)c1ccc(F)cc1F | - | Candida kefyr | - | - | MIC80 | - | 0.0156 µg/mL
COc1ccc(C2c3ccc4ccccc4c3Oc3nc(-c4cc5ccccc5oc4=O)[nH]c(=O)c32)cc1OC | agar diffusion / agar | Candida rugosa | 150 µg/mL | - | zone | - | 22 mm
C/C(=N\c1n[nH]c(N)n1)c1ccccn1 | agar diffusion / agar | Candida glabrata | 200 µg/mL | - | inhibition | - | 58%
Cc1ccc(N2C(=O)C[C@@H](C)C2=O)cc1 | broth dilution / turbidity | Candida lusitaniae | - | - | MIC | CCC 134-2000 | 62.5 µg/mL
CN(C)c1ccc(C2c3ccc4ccccc4c3Oc3nc(-c4cc5ccccc5oc4=O)[nH]c(=O)c32)cc1 | agar diffusion / agar | Candida rugosa | 150 µg/mL | - | zone | - | 16 mm
Nc1nc(/N=C/c2c([O-])ccc3ccccc23)n[nH]1.Nc1nc(/N=C/c2c([O-])ccc3ccccc23)n[nH]1.[O]=[V+2] | agar diffusion / agar | Candida glabrata | 200 µg/mL | - | inhibition | - | 55%
CC(=O)CC(C)n1c2c(=O)c3ccccc3c(=O)c=2oc2ccccc21 | - | Candida tenuis | - | - | MIC | VKM Y-70 | 250 µg/mL
CCCCN(Cc1cn(Cc2cccc(F)c2)nn1)CC(O)(Cn1cncn1)c1ccc(F)cc1F | - | Candida kefyr | - | - | MIC80 | - | 0.0156 µg/mL
OB1OC(N2CCOCC2)c2ccccc21 | turbidity | Candida tenuis | - | - | MIC | - | 15.6 µg/mL
CC[C@@H]([C@H](C)O)n1ncn(-c2ccc(N3CCN(c4ccc(OC[C@@H]5CO[C@@](Cn6cncn6)(c6ccc(F)cc6F)C5)cc4)CC3)cc2)c1=O | broth dilution | Candida tropicalis | - | - | MIC | 8685 | 0.03 µg/mL
C=CCc1ccc(O)c(OC)c1 | turbidity | Candida tropicalis | - | - | MIC90 | 2833 | 475 µg/mL
CCCCCOc1ccc(-c2cc(-c3ccc(C(=O)N[C@H]4C[C@@H](O)[C@@H](O)NC(=O)[C@@H]5[C@@H](O)[C@@H](C)CN5C(=O)[C@H]([C@H](O)CC(N)=O)NC(=O)[C@H]([C@H](O)[C@@H](O)c5ccc(O)c(OS(=O)(=O)O)c5)NC(=O)[C@@H]5C[C@@H](O)CN5C(=O)[C@H]([C@@H](C)O)NC4=O)cc3)no2)cc1 | - | Candida lusitaniae | - | - | MIC50 | - | 0.008–2 µg/mL
O/N=C\c1ccc(F)cc1 | - | Candida lipolytica | - | - | MIC | - | 7200 µM
CCCCCCCCCCCCCCCCn1cc[n+](COCCCCCCOC[n+]2ccn(CCCCCCCCCCCCCCCC)c2)c1 | agar diffusion | Candida krusei | - | - | MIC100 | ATCC 6258 | 6 µM
CC1CC(=O)N(c2ccc([N+](=O)[O-])cc2)C1=O | broth dilution / turbidity | Candida lusitaniae | - | - | MIC | CCC 134-2000 | 125 µg/mL
CCCCN(Cc1cn(Cc2ccc(C)cc2)nn1)CC(O)(Cn1cncn1)c1ccc(F)cc1F | - | Candida kefyr | - | - | MIC80 | - | 0.25 µg/mL
O=[N+]([O-])c1ccc(/C=N\O)cc1 | - | Candida famata | - | - | MIC | - | 3010 µM
C[C@H]1[C@H](O)[C@@H](C)/C=C/C=C/C=C/C=C/C=C/C=C/C=C/[C@H](O[C@@H]2O[C@H](C)[C@@H](O)[C@H](N)[C@@H]2O)C[C@@H]2O[C@](O)(C[C@@H](O)C[C@@H](O)CC[C@H](O)[C@@H](O)C[C@@H](O)CC(=O)O[C@H]1C)C[C@H](O)[C@H]2C(=O)O | agar diffusion / agar | Candida rugosa | 150 µg/mL | - | zone | - | 22 mm
CCCCCCCCCCCCCCCCn1cc[n+](COCCCOC[n+]2ccn(CCCCCCCCCCCCCCCC)c2)c1 | agar diffusion | Candida krusei | - | - | MIC100 | ATCC 6258 | 13 µM
CCCCN(Cc1cn(Cc2ccc(Cl)cc2)nn1)CC(O)(Cn1cncn1)c1ccc(F)cc1F | - | Candida kefyr | - | - | MIC80 | - | 0.0039 µg/mL
C[C@@H]1C(=O)N(CCc2ccccc2)C(=O)[C@@H]1C | broth dilution / turbidity | Candida lusitaniae | - | - | MIC | CCC 134-2000 | 62.5 µg/mL
C[C@@H](c1ncncc1F)[C@](O)(Cn1cncn1)c1ccc(F)cc1F | broth dilution | Candida glabrata | - | pH 6 | EC90 | 40 isolates | 4 µg/mL
CCCCCCCCCn1cc[n+](COCCCCOC[n+]2ccn(CCCCCCCCC)c2)c1 | agar diffusion | Candida krusei | - | - | MIC100 | ATCC 6258 | 9 µM
O=C1C2=C(OC(CI)C2)C(=O)c2ccccc21 | broth dilution | Candida tropicalis | - | - | MIC | Clinical isolate | 40.32 µg/mL
O=C1C(Cl)=C(Oc2cccc(N3CC(C(=O)N/N=C/c4ccc(Br)cc4)CC3=O)c2)C(=O)c2ccccc21 | - | Candida tenuis | - | - | MIC | VCM Y-70 | 1.9 µg/mL
CC1(C)O[C@H]2[C@H](O)[C@@H](N=[N+]=[N-])C=C(c3ccc(C=O)cc3)[C@H]2O1 | broth dilution / turbidity | Candida tropicalis | 250 µg/mL | - | inhibition | C 131 | 91.68%
COC(=O)C1CC(=O)N(c2cccc(OC3=C(Cl)C(=O)c4ccccc4C3=O)c2)C1 | - | Candida tenuis | - | - | MIC | VCM Y-70 | 62.5 µg/mL
Cc1ccc(C2c3ccc4ccccc4c3Oc3nc(-c4cc5ccccc5oc4=O)[nH]c(=O)c32)cc1 | agar diffusion / agar | Candida rugosa | 150 µg/mL | - | zone | - | 16 mm
O=C1C(Oc2cccc(N3CC(c4nnco4)CC3=O)c2)=C(Oc2cccc(N3CC(c4nnco4)CC3=O)c2)C(=O)c2ccccc21 | - | Candida tenuis | - | - | MIC | VCM Y-70 | 3.9 µg/mL
O=[N+]([O-])c1cccc(/C=N\O)c1 | - | Candida famata | - | - | MIC100 | - | 3010 µM
CCCCCOc1ccc(-c2cc(-c3ccc(C(=O)N[C@H]4C[C@@H](O)[C@@H](O)NC(=O)[C@@H]5[C@@H](O)[C@@H](C)CN5C(=O)[C@H]([C@H](O)CC(N)=O)NC(=O)[C@H]([C@H](O)[C@@H](O)c5ccc(O)c(OS(=O)(=O)O)c5)NC(=O)[C@@H]5C[C@@H](O)CN5C(=O)[C@H]([C@@H](C)O)NC4=O)cc3)no2)cc1 | broth dilution | Candida guilliermondii | - | - | EC50 | RC-401 | 0.5 µg/mL
CC(CC(=O)NN=Cc1cccs1)n1c2c(=O)c3ccccc3c(=O)c=2oc2ccccc21 | - | Candida tenuis | - | - | MIC | VKM Y-70 | 3.9 µg/mL
O/N=C\c1ccccc1Cl | - | Candida famata | - | - | MIC | - | 1410 µM
OB(O)c1c(F)cc(F)cc1F | turbidity | Candida tenuis | - | - | MIC | - | 250 µg/mL
Cc1cc(C)n(C(=O)C2CC(=O)N(c3cccc(OC4=C(Oc5cccc(N6CC(C(=O)n7nc(C)cc7C)CC6=O)c5)C(=O)c5ccccc5C4=O)c3)C2)n1 | - | Candida tenuis | - | - | MIC | VCM Y-70 | 62.5 µg/mL
CCOC(=O)/C=C(/C)n1c2c(=O)c3ccccc3c(=O)c=2oc2ccc(Cl)cc21 | - | Candida tenuis | - | - | MIC | VKM Y-70 | 125 µg/mL
Clc1ccc(C(Cn2ccnc2)OCc2csc3c(Cl)cccc23)c(Cl)c1 | absorbance | Candida tropicalis | - | 48 h | MIC90 | 65 isolates | 4 µg/mL
O/N=C\c1ccc(O)cc1 | broth dilution | Candida famata | - | - | MIC100 | - | >7290 µM
OB1OC(N2CCN(C3OB(O)c4ccccc43)CC2)c2ccccc21 | turbidity | Candida tenuis | - | - | MIC | - | <0.9 µg/mL
CCCCN(Cc1cn(Cc2ccc(Br)cc2)nn1)CC(O)(Cn1cncn1)c1ccc(F)cc1F | - | Candida kefyr | - | - | MIC80 | - | >64 µg/mL
CCC(C)CC(C)CCCCCCCCC(=O)N[C@H]1C[C@@H](O)[C@H](NCCN)NC(=O)[C@@H]2[C@@H](O)CCN2C(=O)[C@H]([C@H](O)CCN)NC(=O)[C@H]([C@H](O)[C@@H](O)c2ccc(O)cc2)NC(=O)[C@@H]2C[C@@H](O)CN2C(=O)[C@H]([C@@H](C)O)NC1=O | - | Candida guilliermondii | - | - | MIC50 | - | 0.03–16 µg/mL
COc1ccc(-c2cc(-c3ccc(F)cc3)nc(NC(=O)CN3CCOCC3)n2)cc1 | - | Candida spp. | - | - | MIC | Strains 7 and 7 | 50 µg/mL
COC(=O)c1c(N)oc2c1cc(O)c1sc(C)nc12 | broth dilution | Candida utilis | - | - | MIC | KCCM 50662 | 25 µg/mL
CC(C)CC(O)C(=O)O | broth dilution / visual reading | Candida dubliniensis | - | - | MFC100 | T-98 QC2000 | 36000 µg/mL
CCC(C)CC(C)CCCCCCCCC(=O)N[C@H]1C[C@@H](O)[C@H](NCCN)NC(=O)[C@@H]2[C@@H](O)CCN2C(=O)[C@H]([C@H](O)CCN)NC(=O)[C@H]([C@H](O)[C@@H](O)c2ccc(O)cc2)NC(=O)[C@@H]2C[C@@H](O)CN2C(=O)[C@H]([C@@H](C)O)NC1=O | broth dilution | Candida tropicalis | - | - | MIC50 | - | 0.25 µg/mL
CCCCN(Cc1cn(Cc2cccc(C#N)c2)nn1)CC(O)(Cn1cncn1)c1ccc(F)cc1F | - | Candida kefyr | - | - | MIC80 | - | 4 µg/mL
Cc1ccc(/C=N/Nc2ccnc3cc(Cl)ccc23)cc1 | - | Candida famata | - | - | MIC | - | 40 µg/mL
Nc1nc(/N=C/c2ccccn2)n[nH]1 | agar diffusion / agar | Candida glabrata | 200 µg/mL | - | inhibition | - | 62%
C[C@H]1[C@H](O)[C@@H](C)/C=C/C=C/C=C/C=C/C=C/C=C/C=C/[C@H](O[C@@H]2O[C@H](C)[C@@H](O)[C@H](N)[C@@H]2O)C[C@@H]2O[C@](O)(C[C@@H](O)C[C@@H](O)CC[C@H](O)[C@@H](O)C[C@@H](O)CC(=O)O[C@H]1C)C[C@H](O)[C@H]2C(=O)O | broth dilution | Candida lusitaniae | - | - | MIC | UTHSC 11-586 | 1 µg/mL
Cc1nc2c(s1)C(=O)C(Nc1ccccc1)=C(Cl)C2=O | broth dilution | Candida utilis | - | - | MIC | KCCM 50662 | 6.3 µg/mL
CC(=O)c1ccc(B(O)O)cc1 | turbidity | Candida tenuis | - | - | MIC | - | 7.8 µg/mL
CC(CC(=O)NN=Cc1ccco1)n1c2c(=O)c3ccccc3c(=O)c=2oc2ccccc21 | - | Candida tenuis | - | - | MIC | VKM Y-70 | 62.5 µg/mL
CCCCN(Cc1cn(Cc2cccc(Br)c2)nn1)CC(O)(Cn1cncn1)c1ccc(F)cc1F | - | Candida kefyr | - | - | MIC80 | - | >64 µg/mL
C[C@H]1[C@H](O)[C@@H](C)/C=C/C=C/C=C/C=C/C=C/C=C/C=C/[C@H](O[C@@H]2O[C@H](C)[C@@H](O)[C@H](N)[C@@H]2O)C[C@@H]2O[C@](O)(C[C@@H](O)C[C@@H](O)CC[C@H](O)[C@@H](O)C[C@@H](O)CC(=O)O[C@H]1C)C[C@H](O)[C@H]2C(=O)O | agar diffusion | Candida colliculosa | 100 µg/disc | - | zone | Ca3 | 20 mm
CCCCN(Cc1cn(Cc2ccccc2F)nn1)CC(O)(Cn1cncn1)c1ccc(F)cc1F | - | Candida kefyr | - | - | MIC80 | - | 1 µg/mL
CCCCCCCCCCCCn1cc[n+](COCCCCCOC[n+]2ccn(CCCCCCCCCCCC)c2)c1 | agar diffusion | Candida krusei | - | - | MIC100 | ATCC 6258 | 4 µM

Zones are inhibition diameters on agar. Percent inhibition refers to the dose given; in toxicity tests it is the harm to the cells. Blank or dashed fields: not listed here. ECn: concentration that inhibits the pathogen or its effect by n%. Conditions beyond the fields shown may differ between rows. a–b is a range or a potency band.